Measured values published in paper PMC2625307 (Journal of molecular biology, 2008).

Legend:
[1] = target: T1, YU2 gp120 (Human immunodeficiency virus type 1 group M subtype B, UniProt P35961); set-up: species or system HIV-1; conditions: 10Å shell from Cα of residue 23; ternary complex with 17b
[2] = target: T1, YU2 gp120; experiment: Surface-plasmon resonance binding, YU2 gp120; set-up: species or system HIV-1; conditions: YU2; vs biphenyl counterpart

| SMILES | normalized linear difference distance of gp120 vs CD4-bound gp120 [1] | off-rate, fold difference between phenyl- and biphenyl-containing ligands [2] [fold] |
| --- | --- | --- |
| CC(C)C[C@@H]1NC(=O)CNC(=O)[C@H](CC(C)C)NC(=O)[C@H](CO)NC(=O)[C@H](CCCCN)NC(=O)[C@@H]2CSSC[C@@H](C(=O)N[C@H](C(N)=O)C(C)C)NC(=O)[C@H](C)NC(=O)[C@@H]3CSSC[C@H](NC(=O)[C@H](Cc4ccccc4)NC(=O)[C@H](Cc4c[nH]cn4)NC(=O)[C@H](CC(C)C)NC(=O)[C@H](CC(N)=O)NC(=O)CCSSC[C@H](NC(=O)[C@H](CCCCN)NC(=O)CNC(=O)[C@H](CC(C)C)NC1=O)C(=O)N[C@@H](C)C(=O)NCC(=O)N[C@@H](CO)C(=O)N[C@@H](Cc1ccc(-c4ccccc4)cc1)C(=O)N3)C(=O)N[C@@H](CCC(N)=O)C(=O)N[C@@H](CC(C)C)C(=O)N[C@@H](CCCNC(=N)N)C(=O)N2 [CD4M33] | 0.22-0.24 Å |  |
| CC(C)C[C@@H]1NC(=O)CNC(=O)[C@H](CC(C)C)NC(=O)[C@H](CO)NC(=O)[C@H](CCCCN)NC(=O)[C@@H]2CSSC[C@@H](C(=O)N[C@H](C(N)=O)C(C)C)NC(=O)[C@H](C)NC(=O)[C@@H]3CSSC[C@H](NC(=O)[C@H](Cc4ccccc4)NC(=O)[C@H](Cc4c[nH]cn4)NC(=O)[C@H](CC(C)C)NC(=O)[C@H](CC(N)=O)NC(=O)CCSSC[C@H](NC(=O)[C@H](CCCNC(=N)N)NC(=O)CNC(=O)[C@H](CC(C)C)NC1=O)C(=O)N[C@@H](C)C(=O)N1CCC[C@@H]1C(=O)N[C@@H]([C@@H](C)O)C(=O)N[C@@H](Cc1ccccc1)C(=O)N3)C(=O)N[C@@H](CCC(N)=O)C(=O)N[C@@H](CC(C)C)C(=O)N[C@@H](CCCNC(=N)N)C(=O)N2 [[Phe^23]M47] | 0.16-0.20 Å | ≤ 1.7 |
